PubChem BioAssay AID504761 | Drosophila RNAi Screening Center, 2011

Aim: 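Fly genes whose silencing reduces dengue virus type 2 infection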 (primary screen)
Cell system: D.Mel-2 cells from Drosophila
Reagents: long dsRNA against Drosophila genes
Challenge: infection with dengue virus type 2; dose and infection time not stated
Detection: 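Cells stained for dengue envelope protein and imaged; percent of infected cells per well on duplicate plates, ranked by infection, with stained nuclei counted for cell number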
Direction: infection score: higher = more virus-infected cells; cell count: higher = more cells in the well
Rule for the call: 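Low infection ranks in the two replicates (chance level up to 0.065) followed by a retest with a 1.5-fold or larger significant decrease, p below 0.05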
Meaning of the calls: active = confirmed: knock-down lowers infection; inactive = not picked or not confirmed
The screen tested about 22,000 reagents; this is an unselected part of those with a known target gene and a result. In the full data, 116 (0.52%) are marked active. 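Calls depend on retest data that are not deposited; infection was ranked per plate without normalising between plates; the unit of the infection score is not given.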 Raw values vary from plate to plate and are shown uncorrected. Reagents against one gene are numbered here. Reagent sequences are not shown. The record does not give: the amount of reagent, the time to read-out.

| gene | dsRNA no. | infection score, replicate 1 | infection score, replicate 2 | cell count, replicate 1 | cell count, replicate 2 | call |
| --- | --- | --- | --- | --- | --- | --- |
| AlkB | 1 | 0.77 | 1.63 | 6405 | 6441 | inactive |
| CG11583 | 1 | 13.5 | 12.3 | 4217 | 4476 | inactive |
| CG11583 | 2 | 6.19 | 10 | 5214 | 4603 | inactive |
| CG14088 | 1 | 5.07 | 4.56 | 5900 | 6119 | inactive |
| CG4991 | 1 | 2.18 | 13.2 | 6500 | 6436 | inactive |
| CG5644 | 1 | 1.31 | 3.05 | 6555 | 6464 | inactive |
| P5CDh1 | 1 | 9.22 | 12.3 | 5833 | 6700 | inactive |
| CG31111 | 1 | 5.47 | 12.5 | 1665 | 6082 | inactive |
| tau | 1 | 1.22 | 6.22 | 6461 | 6547 | inactive |
| CG17321 | 1 | 8.02 | 4.27 | 5501 | 6606 | inactive |
| CG17321 | 2 | 2.71 | 4.29 | 6093 | 6102 | inactive |
| sra | 1 | 11 | 2.9 | 6988 | 6338 | inactive |
| CG11837 | 1 | 11.6 | 3.01 | 6004 | 6700 | inactive |
| Obp28a | 1 | 4.25 | 4.63 | 6066 | 6544 | inactive |
| Obp28a | 2 | 1.4 | 2.2 | 6505 | 6091 | inactive |
| CG11961 | 1 | 8.98 | 6.01 | 4990 | 1347 | inactive |
| TM9SF4 | 1 | 30.6 | 13.4 | 6406 | 6572 | inactive |
| TM9SF4 | 2 | 3.09 | 0.63 | 6544 | 6866 | inactive |
| pths | 1 | 14.8 | 7.2 | 2444 | 1444 | inactive |
| Srrm1 | 1 | 0.52 | 1.89 | 6153 | 6624 | inactive |
| CG13326 | 1 | 2.57 | 8.61 | 6696 | 6642 | inactive |
| CG10993 | 1 | 3.5 | 4.38 | 6293 | 6071 | inactive |
| plu | 1 | 2.32 | 1.73 | 6159 | 5845 | inactive |
| CG4267 | 1 | 1.94 | 1.57 | 6232 | 6237 | inactive |
| CG4267 | 2 | 0.66 | – | 458 | 438 | inactive |
| GstE2 | 1 | 10.5 | 9.89 | 2144 | 3709 | inactive |
| GstE2 | 2 | 11.3 | 6.05 | 6422 | 6285 | inactive |
| LpR2 | 1 | 2.95 | 2.31 | 6161 | 5680 | inactive |
| LpR2 | 2 | 1.68 | 0.08 | 6181 | 6261 | inactive |
| LpR2 | 3 | 1.79 | 4.82 | 6529 | 6895 | inactive |
| LpR2 | 4 | 11.5 | 0.86 | 6634 | 6047 | inactive |
| CG2247 | 1 | 4.78 | 3.2 | 6236 | 6187 | inactive |
| mus101 | 1 | 21.6 | 22.8 | 4847 | 5747 | inactive |
| Madm | 1 | 9.57 | 7.5 | 6136 | 6172 | inactive |
| Madm | 2 | 4.88 | 15.2 | 6150 | 6031 | inactive |
| tra2 | 1 | 10.3 | 8.61 | 6114 | 5530 | inactive |
| tra2 | 2 | 16.7 | 10 | 6144 | 5917 | inactive |
| Gr93a | 1 | 1.18 | 19.3 | 508 | 6404 | inactive |
| CG3376 | 1 | 16.8 | 17.2 | 6285 | 6268 | inactive |
| CG3376 | 2 | 0.83 | 0.8 | 6357 | 5786 | inactive |
| CG8746 | 1 | 13.9 | 19 | 4359 | 5697 | inactive |
| CG1888 | 1 | 4.1 | 9.2 | 6201 | 6464 | inactive |
| CG11275 | 1 | 8.43 | 11.3 | 6846 | 6467 | inactive |
| Dhps | 1 | 0.52 | 0.48 | 6185 | 6272 | inactive |
| CG6138 | 1 | 5.36 | 2.21 | 6209 | 6825 | inactive |
| CG32260 | 1 | 3.41 | 2.32 | 6506 | 6238 | inactive |
| CG32260 | 2 | 1.3 | 1 | 6872 | 6803 | inactive |
| CG14252 | 1 | 3.39 | 1.67 | 6402 | 6460 | inactive |
| CG32726 | 1 | 1.75 | 11.1 | 6177 | 6539 | inactive |
| CG17780 | 1 | 5.74 | 10.2 | 4548 | 5174 | inactive |
| Pmm2 | 1 | 0.58 | 3.58 | 6014 | 6036 | inactive |
| Pmm2 | 2 | 8.29 | 15.5 | 1411 | 6820 | inactive |
| RpL13 | 1 | 6.51 | 9.07 | 4883 | 3749 | inactive |
| Cpr67Fb | 1 | 2.13 | 4.27 | 6009 | 6000 | inactive |
| Cpr67Fb | 2 | 20.2 | 13.1 | 5631 | 5827 | inactive |
| Fntb | 1 | 16.1 | 8.98 | 5850 | 6244 | inactive |
| Fntb | 2 | 19.5 | 23.5 | 5619 | 6783 | inactive |
| Acer | 1 | 10.8 | 0.13 | 6073 | 742 | inactive |

An excerpt from above, reduced to “cell count, replicate 2”:
pths	1444
Srrm1	6624
CG13326	6642
CG10993	6071
plu	5845
CG4267 #1	6237
CG4267 #2	438
